Here are results for two compounds from patent US7115636B2, “Hetrocyclic aryl sulphonamides” (Bayer Healthcare AG, priority 2001, dated 2006).

Data set [1] deals with MCMV (murine cytomegalovirus). In words: Anti-MCMV cytopathogenicity test. The format is cell-based. The settings on record: selectivity index, CC50 (3T3)/EC50 (MCMV). On the procedure: Anti-HCMV (anti-human cytomegalovirus) and anti-MCMV (anti-murine cytomegalovirus) cytopathogenicity tests:
(§1) The test compounds were employed as 50 millimolar (mM) solutions in dimethyl sulfoxide (DMSO). Ganciclovir, foscarnet and cidofovir served as reference compounds. After the addition of 2 μl in each case of the 50, 5, 0.5 and 0.05 mM DMSO stock solutions to 98 μl each of cell culture medium in row 2 A-H in duplicate, 1:2 dilutions using 50 μl each of medium up to row 11 of the 96-well plate were carried out. The wells in rows 1 and 12 each contained 50 μl of medium. 150 μl each of a suspension of 1×10^4 cells (human lung fibroblasts [HELF]) were then pipetted into the wells (row 1=cell control) or a mixture of HCMV-infected and non-infected HELF cells (M.O.I.=0.001–0.002), i.e. 1–2 infected cells to 1000 non-infected cells, was pipetted into rows 2–12. Row 12 (without substance) served as a virus control. The final test concentrations were 250–0.0005 μM. The plates were incubated at 37° C./5% CO2 for 6 days, i.e. until all cells were infected in the virus controls (100% cytopathogenic effect [CPE]). The wells were then fixed by addition of a mixture of formalin and Giemsa's stain and stained (30 minutes), washed with double-distilled water and dried at 50° C. in a drying oven. The plates were then evaluated visually using an overhead microscope (Plaque multiplier from Technomara). […]

The subject of data set [2] is HCMV (human cytomegalovirus). Description: Anti-HCMV cytopathogenicity test. The format is cell-based. The settings on record: selectivity index = CC50 (HELF)/EC50 (HCMV). As for the experimental part:
as §1, with “Anti-HCMV (anti-human cytomegalovirus) and anti-MCMV (anti-murine cytomegalovirus) cytopathogenicity tests: The test” for “The test”, “in row […] in duplicate,” for “in row 2 A-H in duplicate,”, “HELF cells (M.O.I.=0.001-0.002), i.e. 1-2” for “HELF cells (M.O.I.=0.001–0.002), i.e. 1–2”, “(M.O.I.=0.001-0.002), i.e. 1-2 infected cells” for “(M.O.I.=0.001–0.002), i.e. 1–2 infected cells”, “into rows 2-12. Row 12” for “into rows 2–12. Row 12”, “concentrations were 250-0.0005 μM. The” for “concentrations were 250–0.0005 μM. The”

Bounds are passed on as bounds.

In the case of `CC(C)[C@H](N)c1nc(-c2ccc(S(=O)(=O)Nc3cccc(NC(=O)C(C)(C)CF)c3)cc2)no1` [Example 3, N-(3-{[(4-{5-[(1S)-1-Amino-2-methylpropyl]-1,2,4-oxadiazol-3-yl}phenyl)sulphonyl]amino}phenyl)-3-fluoro-2,2-dimethylpropanamide], the “SI MCMV” value in data set [1] is 851. The “SI HCMV” value in data set [2] is reported as 3378.

Take `CC1(C(=O)Nc2ccc(NS(=O)(=O)c3cccc(-c4noc([C@@H](N)CCCCN)n4)c3)cc2)CC1` [Example 1]: the “SI MCMV” value in data set [1] turned out to be 514. For the same compound, the “SI HCMV” value in data set [2] is on record as above 8929.
